Measured values from several laboratories, pooled; numbers as filed in NIAID ChemDB.

Common to all: growth or infection tests; organism: Coxsackie virus; endpoint: EC50

ECn is the concentration giving n% inhibition of infection, replication or growth. Conditions beyond the fields shown may differ between rows. a–b is a range or a potency band. Blank or dashed fields: not listed here.

CC(=O)OCCOCN1C(=N)/C(=C(\C)O)C(N)=NS1(=O)=O ; strain or isolate: TYPE B4 ; cell line: VERO ; value: >400 µg/mL
CCc1ccc(CCCOc2cc(C)c(-c3noc(C(F)F)n3)c(C)c2)nn1 ; cell line: HeLa ; method: cytopathic effect ; value: 0.033–0.659 µg/mL
S=c1cc(-c2ccccc2)s[nH]1 ; strain or isolate: TYPE B1 ; cell line: HEP-2 ; method: plaque count ; value: >90 µM
[N-]=[N+]=N[C@H]1[C@@H](F)[C@H](N2C=CC(N)NC2=O)O[C@@H]1CO ; strain or isolate: TYPE B4 ; cell line: VERO B ; method: cytopathic effect ; value: >400 µg/mL
CCn1c(-c2cccs2)cc(=O)c2cc(C(C)C)ccc21 ; strain or isolate: TYPE A7 ; cell line: HeLa S3 ; method: cytopathic effect ; value: 3.9 µg/mL
CCC1COC(c2ccc(OCCCCCCC(=O)c3ccc(C)s3)cc2)=N1 ; strain or isolate: TYPE B5 ; cell line: VERO ; method: cytopathic effect ; value: >25.06 µM
Cc1ccc(-n2c(-c3ccccc3)c(C)c(=O)c3cc(C(C)C)ccc32)cc1 ; strain or isolate: TYPE B4/JVB ; cell line: HeLa S3 ; method: cytopathic effect ; value: >2.5 µg/mL
CCCCCCCCCCc1nccn(C(CO)OC(CO)CO)c1=O ; strain or isolate: TYPE B4 ; cell line: MRC-5 ; method: cytopathic effect ; value: >100 µM
CSc1nsc(-c2cccc(Cl)c2)c1C#N ; strain or isolate: TYPE B1 ; cell line: HEP-2 ; method: plaque count ; value: >10 µM
OCCOCn1c(CCc2ccccn2)nc2cc(Cl)c(Cl)cc21 ; strain or isolate: B4 ; cell line: HEL ; method: cytopathic effect ; value: >100 µg/mL
CSc1nsc(-c2ccccc2)c1C#N ; strain or isolate: TYPE B1 ; cell line: HEP-2 ; method: plaque count ; value: >20 µM
C/C(O)=C1\C(=N)N(COCCO)S(=O)(=O)N=C1N ; strain or isolate: TYPE B4 ; cell line: VERO ; value: >400 µg/mL
CCc1ccc(CCCOc2ccc(-c3noc(C(F)F)n3)cc2)nn1 ; cell line: HeLa ; method: cytopathic effect ; value: 0.033–0.659 µg/mL
Cc1ccc(C(=O)CCCCCCOc2ccc(C3=NCC(C)O3)cc2)s1 ; strain or isolate: TYPE B5 ; cell line: VERO ; method: cytopathic effect ; value: 25.97 µM
COc1ccc(C/C=C/Oc2cc(C)c(-c3noc(C(F)F)n3)c(C)c2)nn1 ; cell line: HeLa ; method: cytopathic effect ; value: 0.033–0.659 µg/mL
CCn1c(-c2ccccc2)c(C)c(=O)c2cc(OCC(C)C)ccc21 ; strain or isolate: TYPE B4/JVB ; cell line: HeLa S3 ; method: cytopathic effect ; value: >4 µg/mL
CC=NC(=N)c1nc(-c2ccc(C)cc2)n(COCCO)n1 ; strain or isolate: TYPE B4 ; cell line: HeLa ; method: cytopathic effect ; value: >200 µg/mL
CC(=O)OCCOCN1C=CC(=O)N(COCCOC(C)=O)S1(=O)=O ; strain or isolate: TYPE B4 ; cell line: VERO ; value: >400 µg/mL
CSc1nsc(-c2ccc(OCCc3ccccc3)cc2)c1C#N ; strain or isolate: TYPE B1 ; cell line: HEP-2/L-929/VERO ; method: plaque count ; value: 10 µM
COc1cc2c(=O)c(C)c(-c3ccccc3)n(C)c2cc1C(C)C ; strain or isolate: TYPE B4/JVB ; cell line: HeLa S3 ; method: cytopathic effect ; value: >3.3 µg/mL
Cc1ccc(C(=O)CCCCCCOc2ccc(C3=NC(C)(C)CO3)cc2)s1 ; strain or isolate: TYPE B5 ; cell line: VERO ; method: cytopathic effect ; value: >26.95 µM
OC[C@H]1O[C@@H](n2c(SCc3ccccn3)nc3ccccc32)[C@H](O)[C@@H]1O ; strain or isolate: B4 ; cell line: HEL ; method: cytopathic effect ; value: >100 µg/mL
Cc1nsc(C)c1C#N ; strain or isolate: TYPE B1 ; cell line: HEP-2 ; method: plaque count ; value: >1000 µM
Cc1ccccc1C(c1ccccc1)N1CCN(c2ncnc3c2cnn3-c2ccccc2)CC1 ; strain or isolate: TYPE 3 ; cell line: RD ; method: plaque count ; value: 0.13 µM
Cc1cn([C@H]2O[C@H](CO)[C@@H](N=[N+]=[N-])[C@H]2F)c(=O)nc1N ; strain or isolate: TYPE B4 ; cell line: VERO B ; method: cytopathic effect ; value: >400 µg/mL
Cc1cn(Cc2cc([C@H](C)NC(=O)OC(C)(C)C)no2)c(=O)n(Cc2ccccc2)c1=O ; strain or isolate: TYPE B3 ; value: 10.6 µM
CCS(=O)(=O)c1cccnc1Oc1ccc(C(=O)c2ccccc2)cc1 ; strain or isolate: TYPE A21 ; cell line: HeLa ; method: cytopathic effect ; value: >10 µg/mL
Cc1cc(CCCCCOc2c(Cl)cc(C3=NCCO3)cc2Cl)on1 ; strain or isolate: A-9 ; cell line: RD-2 ; method: plaque count ; value: 0.004 µg/mL
Cc1ccc(C(=O)CCCCCCOc2ccc(C3=NCCO3)cc2Cl)s1 ; strain or isolate: TYPE B5 ; cell line: VERO ; method: cytopathic effect ; value: 13.74 µM
OC[C@H]1O[C@@H](n2c(CCc3ccccn3)nc3ccccc32)[C@H](O)[C@@H]1O ; strain or isolate: B4 ; cell line: HEL ; method: cytopathic effect ; value: >100 µg/mL
C=C(N=CC)c1nc(-c2ccc(OC)cc2)n(C2O[C@H](CO)[C@@H](O)[C@H](O)[C@H]2O)n1 ; strain or isolate: TYPE B4 ; cell line: HeLa ; method: cytopathic effect ; value: >200 µg/mL
CCc1ccc(CCCOc2c(C)cc(-c3noc(C)n3)cc2C)nn1 ; cell line: HeLa ; method: cytopathic effect ; value: 0.033–0.659 µg/mL
CS(=O)(=O)c1ccc(Oc2ccc(C(=O)c3ccccc3)cc2)nc1 ; strain or isolate: A7 ; cell line: HeLa ; method: cytopathic effect ; value: 0.3 µg/mL
CCOC(=O)c1ccc(OCCCOc2ccc(-c3snc(SC)c3C#N)cc2)cc1 ; strain or isolate: TYPE B1 ; cell line: HEP-2/L-929/VERO ; method: plaque count ; value: >2 µM
CCCOc1ccc2c(c1)c(=O)c(C)c(-c1ccccc1)n2CC ; strain or isolate: TYPE B4/JVB ; cell line: HeLa S3 ; method: cytopathic effect ; value: >3.3 µg/mL
CCOC(=O)c1ccc(OCCCCOc2ccc(-c3snc(SC)c3C#N)cc2)cc1 ; strain or isolate: TYPE B1 ; cell line: HEP-2/L-929/VERO ; method: plaque count ; value: >2 µM
C=C(N=CC)c1nc(-c2cccc(C)c2)n(C2O[C@H](CO)[C@@H](O)[C@H](O)[C@H]2O)n1 ; strain or isolate: TYPE B4 ; cell line: HeLa ; method: cytopathic effect ; value: >400 µg/mL
Cc1cc(OCCCc2ccc(F)nn2)cc(C)c1-c1noc(C(F)(F)F)n1 ; cell line: HeLa ; method: cytopathic effect ; value: 0.033–0.659 µg/mL
NC1=CC(N)=NS(=O)(=O)N1COCCO ; strain or isolate: TYPE B4 ; cell line: VERO ; value: >400 µg/mL
OCCOCn1c(SCc2ccccn2)nc2cc(Cl)c(Cl)cc21 ; strain or isolate: B4 ; cell line: HEL ; method: cytopathic effect ; value: >50 µg/mL
CSc1nsc(-c2ccc(OCCOc3ccccc3)cc2)c1C#N ; strain or isolate: TYPE B1 ; cell line: HEP-2/L-929/VERO ; method: plaque count ; value: >20 µM
CSc1nsc(-c2cccc3ccccc23)c1C#N ; strain or isolate: TYPE B1 ; cell line: HEP-2 ; method: plaque count ; value: >4 µM
CSc1nsc(-c2ccc(OCc3ccccc3)cc2)c1C#N ; strain or isolate: TYPE B1 ; cell line: HEP-2 ; method: plaque count ; value: 10 µM
CC(=O)c1ccc(CCCOc2c(C)cc(-c3noc(C(F)(F)F)n3)cc2C)nn1 ; cell line: HeLa ; method: cytopathic effect ; value: 0.033–0.659 µg/mL
[N-]=[N+]=N[C@H]1[C@@H](F)[C@H](n2cnc3c(N)ncnc32)O[C@@H]1CO ; strain or isolate: TYPE B4 ; cell line: VERO B ; method: cytopathic effect ; value: 200 µg/mL
CSc1nsc(-c2ccccc2)c1C#N ; strain or isolate: TYPE B1 ; cell line: HEP-2 ; method: plaque count ; value: >20 µM
CSc1nsc(-c2ccc(OS(=O)(=O)c3ccc(C)cc3)cc2)c1C#N ; strain or isolate: TYPE B1 ; cell line: HEP-2 ; method: plaque count ; value: >25 µM
COc1nsc(-c2ccccc2)c1C#N ; strain or isolate: TYPE B1 ; cell line: HEP-2 ; method: plaque count ; value: >25 µM
CCC1COC(c2ccc(OCCCCC(=O)c3ccc(C)s3)cc2)=N1 ; strain or isolate: TYPE B5 ; cell line: VERO ; method: cytopathic effect ; value: >26.95 µM
C=C[C@@](CO)(CCn1cnc2c(N)ncnc21)c1ccccc1 ; strain or isolate: TYPE B3 ; value: >100 µg/mL
CCc1nc(-c2ccc(OCCC(C)CCN3CCN(c4ccncc4)C3=O)cc2)no1 ; strain or isolate: B3 ; cell line: RD ; method: cytopathic effect ; value: 25 µM
C=C(N=CC)c1nc(-c2ccccc2)n(C2O[C@H](CO)[C@@H](O)[C@H](O)[C@H]2O)n1 ; strain or isolate: TYPE B4 ; cell line: HeLa ; method: cytopathic effect ; value: >200 µg/mL

The last 5 rows once more:

compound | strain or isolate | cell line | method | value
COc1nsc(-c2ccccc2)c1C#N | TYPE B1 | HEP-2 | plaque count | >25 µM
CCC1COC(c2ccc(OCCCCC(=O)c3ccc(C)s3)cc2)=N1 | TYPE B5 | VERO | cytopathic effect | >26.95 µM
C=C[C@@](CO)(CCn1cnc2c(N)ncnc21)c1ccccc1 | TYPE B3 | - | - | >100 µg/mL
CCc1nc(-c2ccc(OCCC(C)CCN3CCN(c4ccncc4)C3=O)cc2)no1 | B3 | RD | cytopathic effect | 25 µM
C=C(N=CC)c1nc(-c2ccccc2)n(C2O[C@H](CO)[C@@H](O)[C@H](O)[C@H]2O)n1 | TYPE B4 | HeLa | cytopathic effect | >200 µg/mL